Results of unrelated studies side by side (data: NIAID ChemDB).

Shared fields: toxicity to cultured cells; cells: CEM; measure: CC50

CCn: concentration that lowers growth or viability of the cells by n%. Rows are shuffled and stem from different studies.

{"compound": "O=C(O)n1sc2ccccc2c1=O", "value": ">100 µM"}
{"compound": "CCc1c(Cc2ccc3ccccc3c2)n(COCCO)c(=O)[nH]c1=O", "value": "121 µM"}
{"compound": "Cc1ccsc1C(=S)Nc1ccc(Cl)c(/C=N/OC(C)(C)C)c1", "value": "32 µM"}
{"compound": "CC(C)CNC(=O)NC(=O)C(C)OC(=O)c1c2c(nc3ccccc13)/C(=C\\c1cccc([N+](=O)[O-])c1)CCC2", "value": ">300 µM"}
{"compound": "O=c1[nH]cnc2c1ncn2[C@H]1CC[C@@H](CCP(=O)(O)O)O1", "value": ">200 µM"}
{"compound": "CCCCOC(=O)c1cc(NC(=S)OC(C)C)ccc1Cl", "value": "37.99 µM"}
{"compound": "C=C(C)[C@@H]1CC[C@]2(C(=O)NCCCCCCCCC(=O)O)CC[C@]3(C)[C@H](CC[C@@H]4[C@@]5(C)CC[C@H](O)C(C)(C)[C@@H]5CC[C@]43C)[C@@H]12", "value": ">3 µM"}
{"compound": "Nc1ncnc2c1ncn2[C@@H]1OC[C@H](CCP(=O)(O)O)C12CC2", "value": ">100 µM"}
{"compound": "Cc1cn([C@H]2C[C@H](N=C(N)N)[C@@H](CO)O2)c(=O)[nH]c1=O", "value": "3.5 µM"}
{"compound": "O=C(Nc1ccc(F)cc1)c1ccccc1SSc1ccccc1C(=O)Nc1ccc(F)cc1", "value": "14 µM"}
{"compound": "Nc1nc(=O)n([C@@H]2C=C[C@H](CO)O2)cc1F", "value": "6.5 µM"}
{"compound": "Cc1cc(C)cc(Cc2c(C(C)C)c(=O)[nH]c(=O)n2COCCO)c1", "value": ">100 µM"}
{"compound": "O=C(O)CCNC(=O)c1ccccc1SSc1ccccc1C(=O)NCCC(=O)O", "value": ">120 µM"}
{"compound": "Cc1ccsc1C(=S)Nc1ccc(Cl)c(C(=O)OC(C(C)C)C(C)C)c1", "value": "73 µM"}
{"compound": "CC1=C(C(=O)Nc2ccc(Cl)c(C(=O)OC(C)C)c2)SCCO1", "value": "24.73 µM"}
{"compound": "Cc1sccc1C(=S)Nc1ccc(Cl)c(C(=O)OC(C(C)C)C(C)C)c1", "value": "14 µM"}
{"compound": "O=C(c1cccc(F)c1)c1ccc2c(c1)oc(=O)n2CCN1CCCCC1", "value": "16 µg/mL"}
{"compound": "CC[C@H](C)[C@H](NC(=O)c1ccccc1SSc1ccccc1C(=O)N[C@H](C(=O)O)[C@@H](C)CC)C(=O)O", "value": "110 µM"}
{"compound": "Cc1ccsc1C(=S)Nc1ccc(Cl)c(C(=O)OC2CCCCC2)c1", "value": "37 µM"}
{"compound": "O=C(c1ccccc1)c1ccc2c(c1)sc(=O)n2Cc1ccccc1", "value": "2.1 µg/mL"}
{"compound": "C=C(C)[C@@H]1CC[C@]2(C(=O)NCCCCCCCC(=O)N3CCC[C@H]3C(=O)O)CC[C@]3(C)[C@H](CC[C@@H]4[C@@]5(C)CC[C@H](O)C(C)(C)[C@@H]5CC[C@]43C)[C@@H]12", "value": ">3 µM"}
{"compound": "O=C(O)c1ccccc1SSc1ccccc1C(=O)O", "value": ">100 µM"}
{"compound": "C=C(C)[C@@H]1CC[C@]2(C(=O)NCCCCCCCC(=O)NC(CC(=O)O)C(F)(F)F)CC[C@]3(C)[C@H](CC[C@@H]4[C@@]5(C)CC[C@H](O)C(C)(C)[C@@H]5CC[C@]43C)[C@@H]12", "value": ">3 µM"}
{"compound": "CCc1c(Cc2cccc3ccccc23)n(COC)c(=O)[nH]c1=O", "value": "106 µM"}
{"compound": "CC(C)O/N=C/c1cc(NC(=S)OC(C)C)ccc1Cl", "value": ">303 µM"}
{"compound": "C/C=C/COc1cc(NC(=S)c2ccoc2C)ccc1Cl", "value": "15 µM"}
{"compound": "C#CCOc1cc(NC(=S)OC(C)C)ccc1Cl", "value": "16.21 µM"}
{"compound": "COCn1c(Cc2ccc3ccccc3c2)c(C)c(=O)[nH]c1=O", "value": "121 µM"}
{"compound": "CC1=C(C(=S)Nc2ccc(Cl)c(C=NOC(C)(C)C)c2)CCCO1", "value": "27 µM"}
{"compound": "Nc1ccccc1C(=O)Nc1ccc(S(N)(=O)=O)cc1", "value": ">100 µM"}
{"compound": "CC(C)OC(=O)c1cc(NC(=S)OCC2(C)COC2)ccc1Cl", "value": "72.65 µM"}
{"compound": "COCn1c(Cc2cccc3ccccc23)c(C(C)C)c(=O)[nH]c1=O", "value": "52 µM"}
{"compound": "C=C(C)[C@@H]1CC[C@]2(C(=O)NCCCCCCCC(=O)NC(Cc3ccccc3)C(=O)O)CC[C@]3(C)[C@H](CC[C@@H]4[C@@]5(C)CC[C@H](O)C(C)(C)[C@@H]5CC[C@]43C)[C@@H]12", "value": ">3 µM"}
{"compound": "N#Cc1ccc(NC(=O)c2ccccc2SSc2ccccc2C(=O)Nc2ccc(C#N)cc2)cc1", "value": "30 µM"}
{"compound": "Cc1occc1C(=S)Nc1ccc(Cl)c(/C=N/OCc2ccccc2)c1", "value": ">259 µM"}
{"compound": "CC(C)OC(=O)c1cc(NC(=S)OCC2CC2)ccc1Cl", "value": "21.05 µM"}
{"compound": "Cc1ccoc1C(=S)Nc1ccc(Cl)c(C(=O)OC(C)C)c1", "value": "23 µM"}
{"compound": "Cc1cn([C@H]2C[C@H](NC=O)[C@@H](CO)O2)c(=O)[nH]c1=O", "value": "74 µM"}
{"compound": "Nc1ccn([C@H]2CC[C@@H](CCP(=O)(O)O)O2)c(=O)n1", "value": ">200 µM"}
{"compound": "Cc1cn([C@H]2C[C@H](N=C(N)NC#N)[C@@H](CO)O2)c(=O)[nH]c1=O", "value": ">100 µM"}
{"compound": "Nc1ccc([C@H]2CC(=O)[C@@H](CO)O2)c(F)c1", "value": ">500 µM"}
{"compound": "CCNC(=O)NC(=O)C(C)OC(=O)c1c2c(nc3ccccc13)/C(=C\\c1cccs1)CCC2", "value": "26 µM"}
{"compound": "Nc1nc2c(ncn2[C@@H]2OC[C@H](CCP(=O)(O)O)C23CC3)c(=O)[nH]1", "value": ">100 µM"}
{"compound": "Cn1c(=O)sc2cc(C(=O)c3ccccc3)ccc21", "value": "4.9 µg/mL"}
{"compound": "CC(C)c1c(Cc2cccc3ccccc23)n(COCCO)c(=O)[nH]c1=O", "value": "58.4 µM"}
{"compound": "CO/N=C/c1cc(NC(=S)OC(C)C)ccc1Cl", "value": "348.7 µM"}
{"compound": "Cn1cccc1C(=S)Nc1ccc(Cl)c(/C=N/OC(C)(C)C)c1", "value": "36 µM"}
{"compound": "CC(C)OC(=S)Nc1ccc(Cl)c(C(=O)O)c1", "value": ">365.3 µM"}
{"compound": "Cc1cn([C@H]2C[C@H](NCC#N)[C@@H](CO)O2)c(=O)[nH]c1=O", "value": "7 µM"}
{"compound": "CC(C)OC(=O)c1cc(NC(=S)SC(C)C)ccc1Cl", "value": "84.4 µM"}
{"compound": "CCc1c(Sc2ccccc2)n(COCc2ccccc2)c(=S)[nH]c1=O", "value": ">100 µM"}
{"compound": "CC(C)OC(=S)Nc1ccc(Cl)c(C(=O)SC(C)C)c1", "value": "27.12 µM"}
{"compound": "CCC(=O)c1ccc2c(c1)sc(=O)n2Cc1ccccc1", "value": "4.8 µg/mL"}
{"compound": "CC[C@H](C)OC(=S)Nc1ccc(Cl)c(C(=O)OC(C)C)c1", "value": "29.71 µM"}
{"compound": "Cc1ccccc1C(=S)Nc1ccc(Cl)c(C(=O)OC(C)C)c1", "value": "73 µM"}
{"compound": "CCCCCOC(=S)Nc1ccc(Cl)c(C(=O)OC(C)C)c1", "value": "63.98 µM"}
{"compound": "CCc1c(Sc2cc(C)cc(C)c2)n(COCc2ccccc2)c(=S)[nH]c1=O", "value": "≥100 µM"}
{"compound": "CC(C)OC(=S)Nc1ccc(Cl)c(C(=O)OC2CC2)c1", "value": "47.8 µM"}
{"compound": "CCOCn1c(Cc2ccccc2)c(C(C)C)c(=O)[nH]c1=O", "value": ">100 µM"}

5 of the rows above, restated:

CC1=C(C(=O)Nc2ccc(Cl)c(C(=O)OC(C)C)c2)SCCO1 ; value: 24.73 µM
Cc1ccsc1C(=S)Nc1ccc(Cl)c(C(=O)OC(C(C)C)C(C)C)c1 ; value: 73 µM
Nc1ccc([C@H]2CC(=O)[C@@H](CO)O2)c(F)c1 ; value: >500 µM
O=c1[nH]cnc2c1ncn2[C@H]1CC[C@@H](CCP(=O)(O)O)O1 ; value: >200 µM
Cc1cn([C@H]2C[C@H](N=C(N)NC#N)[C@@H](CO)O2)c(=O)[nH]c1=O ; value: >100 µM